# Reference: US20230072955A1 (EXUMA BIOTECH, published 2023)
# Biological target: T1, recombinant human HER2 antigen (human)
# T1 construct: also called human HER2 protein
# Test: pH range ELISA, IgG at 100 ng/mL on plate-coated recombinant human HER2; pH of 50% binding activity (pH 6.0 = 100%)
binder,measurement,value
"VH-A106E/VL-A032D (antibody, V domains shown, also called VH-A1063/VL-A032D; A106E/A032D) VH: [about 120 residues with changes skipped] VL: DIQMTQSPSSLSASVGDRVTITCRASQDVNTDVAWYQQKPGKAPKLLIYSASFLYSGVPSRFSGSRSGTDFTLTISSLQPEDFATYYCQQHYTTPPTFGQGTKVEIK",pH Inflection Point Calculation,6.61 pH
